Literature values, collected in US5051403A (priority 1989, dated 1991).

System: mammalian neuromuscular junction of skeletal muscle
Conditions: isolated mouse diaphragm (Sano) and mouse triangularis sterni (Anderson); cited from earlier work

For `CSCC[C@@H]1NC(=O)[C@H](CC(C)C)NC(=O)[C@H](CCCNC(=N)N)NC(=O)[C@H](CO)NC(=O)[C@@H]2CSSC[C@@H]3NC(=O)[C@H](CO)NC(=O)CNC(=O)[C@H]([C@@H](C)O)NC(=O)[C@H](CSSC[C@H](N)C(=O)N[C@@H](CCCCN)C(=O)NCC(=O)N[C@@H](CCCCN)C(=O)NCC(=O)N[C@@H](C)C(=O)N[C@@H](CCCCN)C(=O)N2)NC(=O)[C@H](CSSC[C@@H](C(N)=O)NC(=O)[C@H](CCCCN)NC(=O)CNC(=O)[C@H](CO)NC(=O)[C@H](CCCNC(=N)N)NC3=O)NC(=O)[C@H](CC(=O)O)NC(=O)[C@H](Cc2ccc(O)cc2)NC1=O` [MVIIA], the “inhibition of neuromuscular transmission” value is listed as “little or no inhibitory efects”.
